Measurements reported in PubChem BioAssay AID1224833 (University of Georgia, 2016)
In all, the deposit lists about 12,000 reagents; shown is a random part of them. Over the whole deposit, about 5,600 (46%) were called active. 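Active calls cover z-scores past 1 in both directions, so they include lowered as well as raised rotavirus replication.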

Screen: 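Host factors restraining rotavirus as candidate antiviral genes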 (primary screen)
System: monkey MA104 kidney cells
Reagents: siRNA pool against human genes, 50 nM
Duration: 48 h knock-down before infection; read 24 h after infection
Challenge: infection with rotavirus strain RV3 two days after transfection; infectious dose for this stage not given
Measured: 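z-score of rotavirus antigen signal per well, from a fluorescent immunoassay, relative to non-targeting control wells on the same plate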
Reading the numbers: z-score vs non-targeting control: higher = more rotavirus replication than with non-targeting control
Active means: In these data the active calls have z-score vs non-targeting control at about -1 or lower, or at about 1 or higher
Meaning of the calls: active = z-score beyond 1 either way; inactive = z-score within 1 of zero

CD99 | z-score vs non-targeting control = 0.474; call = inactive
DEFB128 | z-score vs non-targeting control = 0.274; call = inactive
ADRM1 | z-score vs non-targeting control = 1.65; call = active
ZNF7 | z-score vs non-targeting control = -0.788; call = inactive
LEFTY2 | z-score vs non-targeting control = -1.26; call = active
ATP1B1 | z-score vs non-targeting control = 0.516; call = inactive
RHOB | z-score vs non-targeting control = -1.61; call = active
PLAUR | z-score vs non-targeting control = -1.08; call = active
PNO1 | z-score vs non-targeting control = -1.96; call = active
HHIPL2 | z-score vs non-targeting control = 1.26; call = active
CNKSR1 | z-score vs non-targeting control = 1.51; call = active
RASSF2 | z-score vs non-targeting control = 0.756; call = inactive
MROH9 | z-score vs non-targeting control = -0.691; call = inactive
ARHGAP18 | z-score vs non-targeting control = -1.2; call = active
RPL17 | z-score vs non-targeting control = -2.62; call = active
MKI67 | z-score vs non-targeting control = 1.51; call = active
WDR31 | z-score vs non-targeting control = -3.32; call = active
ATMIN | z-score vs non-targeting control = -0.863; call = inactive
ACTC1 | z-score vs non-targeting control = -1.31; call = active
XYLT1 | z-score vs non-targeting control = -1.19; call = active
TOMM7 | z-score vs non-targeting control = 0.848; call = inactive
PRPSAP2 | z-score vs non-targeting control = -0.381; call = inactive
ATP11C | z-score vs non-targeting control = -1.21; call = active
ODR4 | z-score vs non-targeting control = -1.45; call = active
NLGN4Y | z-score vs non-targeting control = -0.53; call = inactive
ZNF711 | z-score vs non-targeting control = 0.416; call = inactive
ALAD | z-score vs non-targeting control = 1.4; call = active
DPYSL3 | z-score vs non-targeting control = 1.02; call = active
DHRS4L2 | z-score vs non-targeting control = 0.215; call = inactive
TOP3B | z-score vs non-targeting control = -1.76; call = active
DCTPP1 | z-score vs non-targeting control = 1.49; call = active
TAF4 | z-score vs non-targeting control = 0.517; call = inactive
GOT1 | z-score vs non-targeting control = -1.15; call = active
SAMD15 | z-score vs non-targeting control = -1.69; call = active
SAMD1 | z-score vs non-targeting control = -1.74; call = active
SPATA8 | z-score vs non-targeting control = 0.468; call = inactive
SIRAL1 | z-score vs non-targeting control = 0.788; call = inactive
SEC61G | z-score vs non-targeting control = -1.49; call = active
KNTC1 | z-score vs non-targeting control = -1.21; call = active
ZNF579 | z-score vs non-targeting control = -1.92; call = active
GALNT11 | z-score vs non-targeting control = -0.962; call = inactive
TEP1 | z-score vs non-targeting control = 1.82; call = active
ZNF404 | z-score vs non-targeting control = -0.786; call = inactive
USP50 | z-score vs non-targeting control = 0.171; call = inactive
APCDD1L | z-score vs non-targeting control = 1.64; call = active
DNAAF8 | z-score vs non-targeting control = -1.01; call = active
MAB21L4 | z-score vs non-targeting control = -0.744; call = inactive
HTRA4 | z-score vs non-targeting control = 1.73; call = active
IL2RA | z-score vs non-targeting control = -1.81; call = active
PID1 | z-score vs non-targeting control = 1.71; call = active
H4C7 | z-score vs non-targeting control = -1.82; call = active
BSPH1 | z-score vs non-targeting control = -0.489; call = inactive
TYMP | z-score vs non-targeting control = -0.87; call = inactive
PKD1L1 | z-score vs non-targeting control = -0.42; call = inactive
GPR180 | z-score vs non-targeting control = 1.14; call = active
ACAP2 | z-score vs non-targeting control = -1.78; call = active
GFER | z-score vs non-targeting control = -0.86; call = inactive
IPO13 | z-score vs non-targeting control = -0.199; call = inactive
SLC26A8 | z-score vs non-targeting control = -0.164; call = inactive
TEX261 | z-score vs non-targeting control = 1.53; call = active

An excerpt taken from the entries so far, for reference:
RHOB | z-score vs non-targeting control = -1.61; call = active
PLAUR | z-score vs non-targeting control = -1.08; call = active
PNO1 | z-score vs non-targeting control = -1.96; call = active
HHIPL2 | z-score vs non-targeting control = 1.26; call = active
CNKSR1 | z-score vs non-targeting control = 1.51; call = active
RASSF2 | z-score vs non-targeting control = 0.756; call = inactive
MROH9 | z-score vs non-targeting control = -0.691; call = inactive
ARHGAP18 | z-score vs non-targeting control = -1.2; call = active
RPL17 | z-score vs non-targeting control = -2.62; call = active
